Results of unrelated studies side by side (data: NIAID ChemDB).

Shared fields: host cell toxicity; endpoint: CC50

a–b is a range or a potency band. Lines come from different laboratories, so protocols vary. An empty or dashed field is not shown. CCn is the concentration with n% toxicity to the cells.

smiles,method,cells,result
Nc1ccn([C@H]2CC[C@@H](CO)O2)c(=O)n1,-,NHDF,>100 µM
Cc1cccc(Nc2c[nH]c(=O)[nH]c2=O)c1,MTT,Vero cells,>50 µg/mL
CCCCCCCCCCCCCCCO[P@]1(=O)OC[C@@H]2COC(=O)C2=C(CCCC)O1,resazurin,AsPC-1,>50 µM
Nc1nccc2c1ncn2C[C@@H](CO)OCP(=O)(O)O,-,HSB-2,36 µM
NC(=O)c1nn(Cc2ccc(N)cc2)c2ccccc12,MTT,Huh7.5.1,>10 µM
Nc1c(S(=O)(=O)O)cc(Nc2ccc(Nc3nc(Cl)nc(Nc4ccccc4S(=O)(=O)O)n3)c(S(=O)(=O)O)c2)c2c1C(=O)c1ccccc1C2=O,-,MOLT-4/H9(HIV-1(IIIB)),10–100 µM
[Cl][Sn]([Cl])([c]1ccccc1)[c]1ccccc1,-,HFF,1.2 µg/mL
NC(=O)c1nn(Cc2cccc(NC(=O)c3ccc(F)cc3)c2)c2ccccc12,MTT,Huh7.5.1,>10 µM
Cc1cc2c(C(C)C)c(O)c(O)c(C=O)c2c(O)c1-c1c(C)cc2c(C(C)C)c(O)c(O)c(C=O)c2c1O,MTT,GHOST,6.85 µM
O=c1[nH]c(=O)n([C@H]2C[C@H](O)[C@@H](CO)O2)cc1/C=C/Br,-,P3HR-1,75 µg/mL
CCCC[CH2][Sn]([Cl])([Cl])[CH2]CCCC,-,HFF,<1.4 µg/mL
CC(C)c1nccc(CN2CCC(c3[nH]ncc3Cc3ccccc3)CC2)n1,MTS,MAGI-CCR5,>100 µM
Nc1nc2c(ncn2C[C@@H]2COP(=O)(O)CO2)c(=O)[nH]1,-,HSB-2,57 µM
Oc1ccc(Cl)c2cccnc12,luminescence,Jurkat cells,>100 µM
[Cl][Sn]([c]1ccccc1)([c]1ccccc1)[c]1ccccc1,-,HFF,<1 µg/mL
Cc1cn([C@H]2C[C@H](N)[C@@H](CO)O2)c(=O)[nH]c1=O,-,HUMAN SPERM,>300 µM
C=CC1CN2CCC1CC2C[C@H](O)c1ccnc2ccc(OC)cc12,-,THP-1 monocytes,70 µg/mL
Nc1ncnc2c1ncn2CCOCP(=O)(O)O,-,SupT1,43 µM
CC[C@@H](C)[C@@H](N/C=C1\C(=O)C(O)C(C(C)C)=C2C=C(C)C(c3c(C)cc4c(C(C)C)c(O)c(O)c(C=N[C@H](C(=O)O)[C@@H](C)CC)c4c3O)=C(O)C21)C(=O)O.[Na+].[Na+],MTT,GHOST X4/R5,26.48 µM
Nc1nc(N)c2ncn(CCOCP(=O)(O)O)c2n1,propidium iodide,MT-2,5.3 µM
Nc1nc2c(ncn2C[C@H]2COP(=O)(O)CO2)c(=O)[nH]1,-,HSB-2,153 µM
CCCCCCCCCCCCCCCCOCCCOP(=O)(O)COCCn1cc(Br)c(N)nc1=O,propidium iodide,MT-2,38 µM
C[C@H]1O[C@@H](c2ccc3c(c2O)C(=O)C2=C(C3=O)[C@@]3(O)C(=O)C[C@](C)(O)C[C@@]3(O)C=C2)C[C@@H](O)[C@@H]1O,-,HeLa,43 µM
CCCCOc1ccc(Nc2cn(C3C=CC(O)C3)c(=O)n(C3C=CC(O)C3)c2=O)cc1,MTT,A549 cells,>50 µg/mL
Nc1ncnc2c1ncn2C[C@@H](CO)OCP(=O)(O)O,-,TPA-stimulated BCBL-1,58 µM
CC1=CC2=C(C(C)C)C(O)C(=O)/C(=C\N[C@H](C)C(=O)O)C2C(O)=C1c1c(C)cc2c(C(C)C)c(O)c(O)c(C=N[C@@H](C)C(=O)O)c2c1O.[Na+].[Na+],MTT,GHOST,63.46 µM
C/C=C/C=C/C1OC(O)(C(CC)C(=O)NC/C=C/C=C(\C)C(OC)C(C)C2OC(/C=C/C=C/C=C(\C)C(=O)c3c(O)ccn(C)c3=O)C(O)C2O)C(O)C(OC2OC(C)C(OC3OC(C)C(OC)C(O)C3OC)C(OC)C2O)C1(C)C,-,HeLa,20 µg/mL
O=c1[nH]c(=O)n([C@H]2C[C@H](O)[C@@H](CO)O2)cc1/C=C/Br,-,HSB-2,1.2 µM
Nc1ncn([C@@H]2O[C@H](CO)[C@@H](O)[C@H]2O)c(=O)n1,luminescence,Jurkat cells,>100 µM
[CH3][Sn]([CH3])([Br])[Br].c1cnc2c(c1)ccc1cccnc12,-,HFF,75 µg/mL
COCC(Cn1cnc2c(N)ncnc21)OCP(=O)(O)O,-,HB611,64 µM
Cc1ccc(-c2ccc3c(c2)C=C(C(=O)Nc2ccc(C[N+](C)(C)C4CCOCC4)cc2)CCC3)cc1,-,P4R5,>10 µM
CC(C)OP(=O)(COCCn1cnc2c(N)ncnc21)OC(C)C,-,HB611,<34 µM
O=c1[nH]c(=O)n([C@H]2C[C@H](O)[C@@H](CO)O2)cc1I,-,HSB-2,>1500 µM
COc1c(C)c2c(c(O)c1C/C=C(\C)CCC(=O)O)C(=O)OC2,-,MA-104,>100 µg/mL
Nc1cc(CN2CCC(c3[nH]ncc3Cc3ccccc3)CC2)ncn1,MTS,MAGI-CCR5,>100 µM
CC(C)CN(C[C@@H](O)[C@H](Cc1cc(F)cc(F)c1)NC(=O)O[C@H]1CCO[C@H]2OCC[C@H]21)S(=O)(=O)c1ccc2nc(NC(C)C)sc2c1,MTT,TM-31,>100 µM
COC1N([C@H]2C[C@H](N)[C@@H](CO)O2)C(=O)NC(=O)C1(C)Br,-,HUMAN SPERM,12 µM
Nc1nc2c(ncn2CCOCP(=O)(O)O)c(=O)[nH]1,-,HSB-2,1.6 µM
CCCC1CCC(=C2C(=O)CCC2=O)O1,-,HeLa,200 µg/mL
Nc1nc2c(ncn2COC(CO)CO)c(=O)[nH]1,-,HSB-2,54 µM
CCCCCC[CH2][Sn]([Cl])([Cl])[CH2]CCCCCC,-,HFF,29 µg/mL
COc1ccc(OC)c(CCNC(=S)Nc2ccc(Br)cn2)c1,-,HUMAN SPERM,>300 µM
C[n+]1cc2c3c(ccc2c2ccc4cc5c(cc4c21)OCO5)OCO3,luminescence,Jurkat cells,2.2 µM
O=C(O)P(=O)(O)O,-,TPA-stimulated BCBL-1,≥140 µM
COC(=O)N[C@H](C(=O)N[C@@H](Cc1ccccc1)[C@@H](O)CN(Cc1ccc(-c2ccccn2)cc1)NC(=O)[C@@H](NC(=O)OC)C(C)(C)C)C(C)(C)C,MTT,HKBMM,>100 µM
NC(=O)c1nn(Cc2ccc(NC(=O)c3ccccc3)cc2)c2ccccc12,MTT,Huh7.5.1,>10 µM
CCCCCCCCCCCCCCCC(=O)OCC(O)CO,-,HeLa,150 µg/mL
Nc1nc2c(ncn2C[C@]2(CO)C[C@H]2CO)c(=O)[nH]1,-,TPA-stimulated BCBL-1,≥25 µM
Cc1ccc(-c2cc(C(F)(F)F)nn2-c2ccc(S(N)(=O)=O)cc2)cc1,luminescence,Jurkat cells,>100 µM
O=c1[nH]c(=O)n(C[C@@H](CO)OCP(=O)(O)O)cc1F,-,HB611,>200 µM
NC(=O)c1ncn([C@@H]2O[C@H](CO)[C@@H](O)[C@H]2O)n1,-,MA-104,>100 µg/mL
CC(C)C1CCC2[C@]1(C)CCC1[C@]23C=C[C@]2(C[C@@H](O)CC[C@]12C)OO3,ATP / luminescence,Hs27,100 µM
Cc1[nH]c(=S)nc2c1ncn2CCOCCP(=O)(O)O,-,HB611,>400 µM
Nc1ncc(N2CCC(c3[nH]ncc3Cc3ccccc3)CC2)cn1,MTS,MAGI-CCR5,>300 µM
CCC[CH2][Sn+2][CH2]CCC,-,HFF,<1 µg/mL
Nc1nc2c(ncn2COCCO)c(=O)[nH]1,-,TPA-stimulated BCBL-1,≥230 µM
CC(CCOc1ccc(-c2ccc(Cl)cc2)cc1)CCN1CCN(c2ccncc2)C1=O,-,RD,>25 µM
Cc1cn([C@H]2C[C@H](O)[C@@](C#N)(COP(=O)(O)OP(=O)(O)OP(=O)(O)O)C2)c(=O)[nH]c1=O,luminescence,MT4-GFP,>42 µM
Nc1ncnc2c1ncn2CCOCP(=O)(O)O,-,NHDF,650 µM
CNCC1=CC[C@@H](N)[C@@H](O[C@H]2[C@H](O)[C@@H](O[C@H]3OC[C@](C)(O)[C@H](NC)[C@H]3O)[C@H](N)C[C@@H]2N)O1,-,HeLa,>200 µg/mL
CC[C@@]1([C@@H]2O[C@@H]([C@H]3O[C@@](O)(CO)[C@H](C)C[C@@H]3C)C[C@@H]2C)CC[C@H]([C@]2(C)CC[C@]3(C[C@H](O)[C@@H](C)[C@@H]([C@@H](C)[C@@H](OC)[C@H](C)C(=O)O)O3)O2)O1,luminescence,Jurkat cells,0.1 µM
CC(C)CCCC(C)C1CCC2C3CC=C4CC(OC(=O)CCC(=O)O)CCC4(C)C3CCC12C,-,HeLa,>200 µg/mL
Nc1ccnc(CN2CCC(c3[nH]ncc3Cc3ccccc3)CC2)n1,MTS,MAGI-CCR5,>300 µM
NC(=O)c1nn(Cc2cccc(NC(=O)c3ccccc3F)c2)c2ccccc12,MTT,Huh7.5.1,>10 µM
Nc1nc2c(ncn2CCC(CO)CO)c(=O)[nH]1,-,CD4+ T lymphocytes,>250 µM
COC1N(C2CC(N=[N+]=[N-])C(CO)O2)C(=O)NC(=O)C1(C)Br,-,HUMAN SPERM,104 µM
CO[C@@H]1C[C@@H](C[C@H]2CC[C@H](C)[C@H]([C@@H](C)C(=O)O)O2)O[C@]2(O[C@](C)([C@H]3CC[C@@](C)([C@@H]4O[C@@H]([C@H]5O[C@@](O)(CO)[C@H](C)C[C@@H]5C)C[C@@H]4C)O3)C[C@H]2C)[C@@H]1C,luminescence,Jurkat cells,0.1 µM
CC1=CC2=C(C(C)C)C(O)C(=O)/C(=C\N[C@H](CC(C)C)C(=O)O)C2C(O)=C1c1c(C)cc2c(C(C)C)c(O)c(O)c(C=N[C@@H](CC(C)C)C(=O)O)c2c1O.[Na+].[Na+],MTT,GHOST X4/R5,43.66 µM
Nc1nc2c(ncn2COC(CO)CO)c(=O)[nH]1,-,P3HR-1,12 µg/mL
Nc1ccn([C@@H]2C=C(CO)[C@@H](O)[C@@H]2O)c(=O)n1,-,MA-104,>100 µg/mL
O=c1c(Nc2ccccc2)cn(C2C=CC(O)C2)c(=O)n1C1C=CC(O)C1,MTT,A549 cells,>50 µg/mL
CC[C@@H]1[C@@H](C)O[C@@](O)([C@@H](C)[C@H](O)[C@H](C)[C@H]2OC(=O)/C=C/C=C/[C@H](C)[C@@H]([C@@H](C)[C@@H](O)[C@H](C)[C@@]3(O)C[C@@H](O[C@H]4C[C@H](O)[C@H](O)[C@H](C)O4)[C@H](CC)[C@@H](C)O3)OC(=O)/C=C/C=C/[C@@H]2C)C[C@H]1O[C@H]1C[C@H](O)[C@H](O)[C@H](C)O1,-,HeLa,<10 µg/mL
COC1=CC(=O)C(O)=C/C1=C\C=C\c1ccccc1,luminescence,Jurkat cells,>100 µM

The first 6 rows once more:

{"smiles": "Nc1ccn([C@H]2CC[C@@H](CO)O2)c(=O)n1", "cells": "NHDF", "result": ">100 µM"}
{"smiles": "Cc1cccc(Nc2c[nH]c(=O)[nH]c2=O)c1", "method": "MTT", "cells": "Vero cells", "result": ">50 µg/mL"}
{"smiles": "CCCCCCCCCCCCCCCO[P@]1(=O)OC[C@@H]2COC(=O)C2=C(CCCC)O1", "method": "resazurin", "cells": "AsPC-1", "result": ">50 µM"}
{"smiles": "Nc1nccc2c1ncn2C[C@@H](CO)OCP(=O)(O)O", "cells": "HSB-2", "result": "36 µM"}
{"smiles": "NC(=O)c1nn(Cc2ccc(N)cc2)c2ccccc12", "method": "MTT", "cells": "Huh7.5.1", "result": ">10 µM"}
{"smiles": "Nc1c(S(=O)(=O)O)cc(Nc2ccc(Nc3nc(Cl)nc(Nc4ccccc4S(=O)(=O)O)n3)c(S(=O)(=O)O)c2)c2c1C(=O)c1ccccc1C2=O", "cells": "MOLT-4/H9(HIV-1(IIIB))", "result": "10–100 µM"}